This is an account of results in patent US20250188078A1, “SMALL MOLECULE INHIBITORS OF THE CRL4 UBIQUITIN LIGASE” (Cornell University, priority 2022, published 2025).

The assay concerns CUL4A-Vpr-dependent UNG2 degradation in Hela DOX-inducible-Vpr cells. Description: DOX-induced Vpr-mediated CUL4-dependent UNG2 degradation (Western blot). Conditions: FIG. 6C. The method, then:
FIG. 6C. Inhibition of DOX-induced Vpr-mediated CUL4-dependent UNG2 degradation by small molecule CUL4 inhibitors. In brief, Hela DOX-inducible-Vpr cells were seeded in 6-well plates. After 24 hours incubation, medium was changed to growth medium with 75 ng/ml doxycycline (DOX) overnight. On the third day, DMSO or indicated concentrations of compounds in serum-free medium containing DOX were added. The cells were lysed in buffer containing 150 mM NaCl, 1% SDS, 10 mM Tris-HCl (pH 6.8), 1× complete protease inhibitor cocktail and 10 U Benzo nuclease. Equal amounts of proteins were resolved on 9% SDS-PAGE gel and UNG2 levels were detected using anti-UNG2 (2C12) antibody (Origene #TA503563). α-tubulin (Proteintech, #66031-1-Ig) was used as an internal control. Normalized UNG2/α-tubulin ratio is higher in the compound treated sample than DMSO treated sample. (−) means that no change happens between compound treated sample with control sample.

As to `CN(c1ccc(-c2nc(C(=O)O)cc3c2[nH]c2ccccc23)cc1)S(=O)(=O)c1ccccc1`, the “Inhibition of CUL4A-Vpr-dependent UNG2 degradation” value is “robust inhibition”.
